Measured values from several laboratories, pooled; numbers as filed in NIAID ChemDB.

Common to all: tests in culture; species: Mycobacterium tuberculosis

Blank or dashed fields: not listed here. Percent inhibition refers to the dose given; in toxicity tests it is the harm to the cells. MIC bound comes from a single tested concentration. Conditions beyond the fields shown may differ between rows. Two numbers with a dash give a range or band. A number after MIC or MFC names an inhibition level or a share of isolates.

SMILES	strain	changes	method	dose	measure	result
Cn1c(-c2ccccc2)c2c(c1-c1ccccc1)C(=O)c1c(c(-c3ccccc3)n(C)c1-c1ccccc1)C2=O	H37Rv		resazurin		MIC bound	>6.25 µg/mL
CCC(C)N1CCN(c2cc(=O)c3nc4c(oc3c2)c2c(=O)c3c(O)c(C)c5c(c34)=C(O)[C@@](C)(O/C=C/[C@H](OC)[C@@H](C)[C@@H](OC(C)=O)[C@H](C)[C@H](O)[C@H](C)[C@@H](O)[C@@H](C)/C=C/C=C(/C)C(=O)N2)O5)CC1	H37Rv				MIC	0.017 µg/mL
Nc1ccc2[nH]c(=S)sc2c1	H37Rv		BACTEC		MIC bound	>12.5 µg/mL
N#Cc1ccc(Nc2nc(Oc3cccc4cccnc34)nc(N3CCN(Cc4ccccc4)CC3)n2)cc1C(F)(F)F	H37Rv		agar		MIC95	200 µg/mL
CCN(CC)c1ccc(/C=C2/N=C(c3ccc(C)cc3)OC2=O)cc1	H37Rv		resazurin		MIC	4 µg/mL
C=CCN1C(=O)CS/C1=N\NC(=O)Cc1csc2nc(-c3ccc(Br)cc3)cn12	H37Rv				MIC	>6.25 µg/mL
O=C(Nc1ccc(S(=O)(=O)c2ccc([N+](=O)[O-])cc2)cc1)c1ccncc1	H37Rv		resazurin	6.25 µg/mL	inhibition	26%
N/C(COc1cccc(Cl)c1)=N/NC(=O)c1ccncc1	ATCC 35838 (rifampin-resistant)				MIC	12.5 µg/mL
CC(=O)O[C@H]1CC2[C@@H](C(C)(C)O)CC[C@]2(C)C2CCC3[C@@]4(C)CCCC(C)(C)C4CC[C@@]3(C)[C@@]21C					MIC	>50 µg/mL
CNC(=S)NNC(=O)Cc1csc2nc(-c3ccc(Br)cc3)cn12	H37Rv			6.25 µg/mL	inhibition	29%
CO[C@H]1/C=C/O[C@@]2(C)Oc3c(C)c(O)c4c(=O)c(c5oc6cc(N7CCN(CC(C)C)CC7)cc(=O)c6nc5c4c3=C2O)NC(=O)/C(C)=C\C=C\[C@H](C)[C@H](O)[C@@H](C)[C@@H](O)[C@@H](C)[C@H](OC(C)=O)[C@@H]1C	20 strains				MIC90	0.035 µg/mL
CC1(C)CC[C@]2(C(=O)O)CC[C@]3(C)C(=CCC4[C@@]5(C)CC[C@H](OC(=O)/C=C/c6ccc(Cl)cc6)C(C)(C)C5CC[C@]43C)C2C1	H37Ra		resazurin		MIC	>200 µg/mL
Cl.Cl.Cl.Cl.NCCCC(N)C(=O)NC(CCCN)C(=O)NC(CCCN)C(=O)O	H37Rv		BACTEC		MIC bound	>12.5 µg/mL
Cc1ccc(/C=C2/N=C(c3ccc(C)cc3)OC2=O)cc1	H37Rv		resazurin		MIC	16 µg/mL
CC(=O)Oc1ccc(/C=C/C(=O)O[C@H]2CC[C@@]3(C)C(CC[C@]4(C)C3CC=C3C5[C@@H](C)[C@H](C)CC[C@]5(C(=O)O)CC[C@]34C)C2(C)C)cc1OC(C)=O	H37Ra		resazurin		MIC	100 µg/mL
O=c1nc2c(ncn2Cc2ccccc2)c(-c2ccco2)n1Cc1ccccc1	H37Rv				MIC	>12.5 µg/mL
C=C(C)[C@@H]1CC[C@]2(C(=O)O)CC[C@]3(C)C(CCC4[C@@]5(C)CC[C@H](OC(=O)/C=C/c6ccc(Cl)cc6)C(C)(C)C5CC[C@]43C)C12	H37Ra		resazurin		MIC	>200 µg/mL
Nc1nc(-c2ccccc2)c(N=Nc2ccc([N+](=O)[O-])cc2Cl)s1	H37Rv		BACTEC		MIC bound	>6.25 µg/mL
Nc1ccccc1C(=O)Nc1cccc(F)c1	My 331/88				MIC	500 µM
Cc1ccc(C2=N/C(=C/c3ccc([N+](=O)[O-])cc3)C(=O)O2)cc1	H37Rv		resazurin		MIC	8 µg/mL
CC(C)Oc1ccc(C(=O)NS(=O)(=O)c2ccc(N=Nc3c(O)n(-c4ccccc4)n(-c4ccccc4)c3=O)cc2)cc1	H37Rv		BACTEC	12.8 µg/mL	inhibition	34%
CN1C(=O)CS/C1=N\NC(=O)Cc1csc2nc(-c3ccc(Br)cc3)cn12	H37Rv			6.25 µg/mL	inhibition	7%
Nc1ccc(Cl)cc1C(=O)Nc1ccc(Cl)c(Cl)c1	My 331/88				MIC	32 µM
N#Cc1ccc(Nc2nc(Oc3cccc4cccnc34)nc(N3CCN(c4cccc(Cl)c4)CC3)n2)cc1C(F)(F)F	H37Rv		BACTEC		MIC	>6.25 µg/mL
NNC(=O)c1ccncc1	H37Rv		resazurin		MIC	0.2 µM
CCCN1CCN(c2cc(=O)c3nc4c(oc3c2)c2c(=O)c3c(O)c(C)c5c(c34)=C(O)[C@@](C)(O/C=C/[C@H](OC)[C@@H](C)[C@@H](OC(C)=O)[C@H](C)[C@H](O)[C@H](C)[C@@H](O)[C@@H](C)/C=C/C=C(/C)C(=O)N2)O5)CC1	H37Rv				MIC	0.035 µg/mL
N/C(COc1ccc(Cl)cc1)=N/NC(=O)c1ccncc1	ATCC 35828 (pyrazinamide-resistant)				MIC	12.5 µg/mL
CCCCCCC(N)(CCCCCC)C(=O)Nn1c(C)ccc1C	H37Rv		BACTEC		MIC bound	>12.5 µg/mL
CC(=O)O[C@H]1CC[C@@]2(C)C(CC[C@]3(C)C2CCC2[C@@]4(C)CC[C@H](C(C)(C)O)C4C[C@H](O)[C@]23C)C1(C)C					MIC	12.5 µg/mL
O=C1CCCCC/C1=C\c1cccc(Br)c1	H37Rv		broth dilution / resazurin	12.5 µg/mL	inhibition	0%
O=C(Cc1csc2nc(-c3ccc(Br)cc3)cn12)N/N=C1\SCC(=O)N1c1ccc(Br)cc1	H37Rv				MIC	>6.25 µg/mL
Cc1[nH]n(C(=O)c2sc3ccc(Cl)cc3c2Cl)c(=O)c1N=Nc1ccccc1[N+](=O)[O-]			agar diffusion / agar	40 µg/mL	inhibition	53%
Cc1cc2nc(CCC3CCCCC3)[nH]c2cc1C	H37Rv	6C MmpL3 (G253E)	visual reading / absorbance		MIC90	1.93 µM
CC(=O)N1N=C(c2sc3ccc(Cl)cc3c2Cl)OC1c1ccccc1			agar diffusion / agar	40 µg/mL	inhibition	27%
CC(=O)NC[C@H]1CN(c2ccc(N3CCN(Cc4ccc([N+](=O)[O-])o4)CC3)c(F)c2)C(=O)O1	59 isolates				MIC50	2 µg/mL
CCN1C[C@]2(C)CC[C@H](OC)[C@]34C1[C@H]([C@@H](O)[C@H]23)[C@@]1(O)CC[C@@H]2C[C@@H]4[C@@H]1C(=O)O2	H37Rv		BACTEC	12.5 µg/mL	inhibition	10%
CO[C@H]1/C=C/O[C@@]2(C)Oc3c(C)c(O)c4c(O)c(c5c(c4c3C2=O)NC2(CCN(CC(C)C)CC2)N=5)=NC(=O)/C(C)=C\C=C\[C@H](C)[C@H](O)[C@@H](C)[C@@H](O)[C@@H](C)[C@H](OC(C)=O)[C@@H]1C	2 isolates (Asp516Tyr)				MIC	0.5 µg/mL
CO[C@H]1/C=C/O[C@@]2(C)Oc3c(C)c(O)c4c(O)c(c(/C=N/N5CCN(C)CC5)c(O)c4c3C2=O)NC(=O)/C(C)=C\C=C\[C@H](C)[C@H](O)[C@@H](C)[C@@H](O)[C@@H](C)[C@H](OC(C)=O)[C@@H]1C	H37Rv		visual reading / absorbance		MIC90	0.6 µM
O=C1C(=O)c2ccccc2C(O)=C1CCCc1ccc(C2CCCCCC2)cc1	H37Rv		BACTEC		MIC	32 µg/mL
COc1cccc(OC)c1Nc1nc(-c2cccc([N+](=O)[O-])c2)cs1	H37Rv		agar		MIC	>12.5 µg/mL
COc1ccc(C(CC(C)=O)c2c(O)c3ccccc3oc2=O)cc1OC	H37Rv		BACTEC		MIC bound	>12.5 µg/mL
CC(=O)Nc1ccc(N=Nc2c(C)[nH]n(C(=O)c3sc4ccc(Cl)cc4c3Cl)c2=O)cc1			agar diffusion / agar	40 µg/mL	inhibition	50%
C=C1C(=O)O[C@H]2C[C@@H]1[C@@H](OC(C)=O)C/C(C)=C\CC/C(C)=C\CC[C@@]2(C)O	H37Rv		BACTEC	12.8 µg/mL	inhibition	8%
CO[C@H]1/C=C/O[C@@]2(C)Oc3c(C)c(O)c4c(=O)c(c5oc6cc(N7CCN(C(C)C)CC7)cc(=O)c6nc5c4c3=C2O)NC(=O)/C(C)=C\C=C\[C@H](C)[C@H](O)[C@@H](C)[C@@H](O)[C@@H](C)[C@H](OC(C)=O)[C@@H]1C	H37Rv				MIC	0.017 µg/mL
CC1(C)CC[C@]2(C(=O)O)CC[C@]3(C)C(=CC[C@@H]4[C@@]5(C)CC[C@H](O)C(C)(C)[C@@H]5CC[C@]43C)[C@@H]2C1	H37Ra		resazurin		MIC	50 µg/mL
COc1ccccc1/C=C1\COc2ccccc2C1=O	H37Rv		broth dilution / resazurin	10 µg/mL	inhibition	65%
N#Cc1c(C#N)c(-c2ccco2)n(/N=C/c2ccco2)c1N	H37Rv		resazurin	6.25 µg/mL	inhibition	-50%
CC(C)N1CCN(c2nc(Nc3ccc(C#N)c(C(F)(F)F)c3)nc(Oc3cccc4cccnc34)n2)CC1	H37Rv		agar		MIC98	50 µg/mL
CCNCCNc1ccc(CO)c2sc3ccccc3c(=O)c12	H37Rv		BACTEC	12.5 µg/mL	inhibition	86%
CC[C@@H](CO)NCCN[C@@H](CC)CO	H37Rv	EJMCh6A MmpL3  (V684A)	visual reading / absorbance		MIC90	7.7 µM
N[C@H](C(=O)O)[C@H]1ON=C(Cl)[C@@H]1O	PZA-R				MIC	12.5 µg/mL
CC1COc2c(N3CCN(C)CC3)c(F)cc3c(=O)c(C(=O)O)cn1c23	20 strains				MIC50	0.02–0.05 µg/mL
C[C@]12Cc3cn4ncnc4nc3CC1CC[C@@H]1[C@@H]2CC[C@]2(C)C(O)CC[C@@H]12	H37Rv			6.25 µg/mL	inhibition	6%
CN(C)C/C=C(/c1ccc(Br)cc1)c1ccc(-c2ccc(Br)cc2)cc1	H37Ra				MIC	4 µg/mL
Nc1ccccc1C(=O)Nc1cccc(Cl)c1	My 331/88				MIC	>250 µM
COC(=O)C1=C2Nc3ccccc3[C@@]23CCN2C[C@]4(CC5C[C@]67CC(=O)O[C@H]6CCN6CC[C@@H](C67)[C@@]5(O)N(c5ccccc5OC)C4)[C@@H]4OCC[C@]4(C1)C23	H37Rv		resazurin		MIC90	>50 µg/mL
COc1cc2c(cc1OC)C(C1OC(=O)c3c1ccc1c3OCO1)N(C)CC2	H37Rv		BACTEC		MIC	≥128 µg/mL
O=C1/C(=C/c2ccc(Br)cc2)COc2ccccc21	H37Rv		broth dilution / resazurin	10 µg/mL	inhibition	27%
N#Cc1ccc(Nc2nc(Oc3cccc4cccnc34)nc(N3CCCCC3)n2)cc1C(F)(F)F	H37Rv		agar		MIC96	200 µg/mL
COc1ccc(-c2csc(CN=Cc3cn(Cc4ccc(Cl)cc4Cl)c4ccccc34)n2)cc1OC	H37Rv		agar		MIC	>12.5 µg/mL
Cc1ccc(C2=N/C(=C/c3ccc(N(C)C)cc3)C(=O)O2)cc1	H37Rv		resazurin		MIC	4 µg/mL
N#CCCN(CCC#N)c1ccc(/C=C(/NC(=O)c2cc([N+](=O)[O-])ccc2Cl)C(=O)N=[N+]=[N-])cc1	H37Rv		BACTEC		MIC bound	>12.5 µg/mL
COC(=O)C1=C2Nc3ccccc3[C@@]23CCN2C3[C@]3(CCO[C@H]3[C@@]3(CC4C[C@]56CC(=O)O[C@H]5CCN5CC[C@H](C4N(c4ccccc4OC)C3)C56)[C@H]2O)C1	H37Rv		resazurin		MIC90	4 µg/mL
Cc1cc(O)c(NCCN(C)C)c2c(=O)c3ccccc3sc12	H37Rv		BACTEC		MIC bound	>12.5 µg/mL
Cc1cccc(N=Nc2c(C)[nH]n(C(=O)c3sc4ccc(Cl)cc4c3Cl)c2=O)c1C			agar diffusion / agar	40 µg/mL	inhibition	18%
CCOC(=O)N/N=C/c1ccc([N+](=O)[O-])o1	H37Rv		resazurin	6.25 µg/mL	inhibition	-28%
O=C(Cc1csc2nc(-c3ccc(Br)cc3)cn12)NNC(=S)Nc1ccc(Cl)cc1	H37Rv				MIC	>6.25 µg/mL
Cc1cccc(/C=C2\CCCc3ccccc3C2=O)c1	H37Rv		broth dilution / resazurin	12.5 µg/mL	inhibition	19%
Cc1ccc(C2=N/C(=C/c3ccc(Br)cc3)C(=O)O2)cc1	H37Rv		resazurin		MIC	32 µg/mL
O=c1nc2c(ncn2Cc2ccccc2)c(-c2ccccc2)n1Cc1ccccc1	H37Rv				MIC	>12.5 µg/mL
O=C1NC(=O)[C@@]2(CC[C@@H](O)C2)c2ccncc21	H37Rv		BACTEC	12.5 µg/mL	inhibition	15%
COc1ccc(OC)c(/C=C2/N=C(c3ccc(C)cc3)OC2=O)c1	H37Rv		resazurin		MIC	4 µg/mL

Repeating the first 9 entries:

Cn1c(-c2ccccc2)c2c(c1-c1ccccc1)C(=O)c1c(c(-c3ccccc3)n(C)c1-c1ccccc1)C2=O ; strain: H37Rv ; method: resazurin ; measure: MIC bound ; result: >6.25 µg/mL
CCC(C)N1CCN(c2cc(=O)c3nc4c(oc3c2)c2c(=O)c3c(O)c(C)c5c(c34)=C(O)[C@@](C)(O/C=C/[C@H](OC)[C@@H](C)[C@@H](OC(C)=O)[C@H](C)[C@H](O)[C@H](C)[C@@H](O)[C@@H](C)/C=C/C=C(/C)C(=O)N2)O5)CC1 ; strain: H37Rv ; measure: MIC ; result: 0.017 µg/mL
Nc1ccc2[nH]c(=S)sc2c1 ; strain: H37Rv ; method: BACTEC ; measure: MIC bound ; result: >12.5 µg/mL
N#Cc1ccc(Nc2nc(Oc3cccc4cccnc34)nc(N3CCN(Cc4ccccc4)CC3)n2)cc1C(F)(F)F ; strain: H37Rv ; method: agar ; measure: MIC95 ; result: 200 µg/mL
CCN(CC)c1ccc(/C=C2/N=C(c3ccc(C)cc3)OC2=O)cc1 ; strain: H37Rv ; method: resazurin ; measure: MIC ; result: 4 µg/mL
C=CCN1C(=O)CS/C1=N\NC(=O)Cc1csc2nc(-c3ccc(Br)cc3)cn12 ; strain: H37Rv ; measure: MIC ; result: >6.25 µg/mL
O=C(Nc1ccc(S(=O)(=O)c2ccc([N+](=O)[O-])cc2)cc1)c1ccncc1 ; strain: H37Rv ; method: resazurin ; dose: 6.25 µg/mL ; measure: inhibition ; result: 26%
N/C(COc1cccc(Cl)c1)=N/NC(=O)c1ccncc1 ; strain: ATCC 35838 (rifampin-resistant) ; measure: MIC ; result: 12.5 µg/mL
CC(=O)O[C@H]1CC2[C@@H](C(C)(C)O)CC[C@]2(C)C2CCC3[C@@]4(C)CCCC(C)(C)C4CC[C@@]3(C)[C@@]21C ; measure: MIC ; result: >50 µg/mL